Compound potency records, mixed from different reports. Data source: NIAID ChemDB in PubChem.

Common to all: whole-cell or culture tests; species: Semliki Forest virus

Rows are shuffled and stem from different studies.

C=C(N=CC)c1nc(-c2ccccc2)n(C2O[C@H](CO)[C@@H](O)[C@H](O)[C@H]2O)n1 ; method: cytopathic effect ; cells: VERO ; endpoint: EC50 ; value: >200 µg/mL
Cc1cn(CC[C@H](O)CCO)c(=O)[nH]c1=O ; method: cytopathic effect ; cells: VERO ; endpoint: EC50 ; value: >400 µg/mL
Nc1ncnc2c1ncn2[C@@H]1C=C(CO)[C@@H](O)[C@H]1O ; method: cytopathic effect ; cells: VERO ; endpoint: EC50 ; value: ≥40 µg/mL
CO[C@H](CO)[C@@H](O)CCn1cnc2c(N)ncnc21 ; method: cytopathic effect ; cells: VERO ; endpoint: EC50 ; value: >400 µg/mL
Cc1cn([C@H]2O[C@H](CO)[C@@H](N=[N+]=[N-])[C@H]2F)c(=O)nc1N ; method: cytopathic effect ; cells: VERO B ; endpoint: EC50 ; value: >400 µg/mL
Nc1nccc2c1ncn2[C@@H]1C[C@H](CO)[C@@H](O)[C@H]1O ; method: cytopathic effect ; cells: VERO ; endpoint: EC50 ; value: 10 µg/mL
Nc1nccc2c1ncn2[C@@H]1C[C@H](CO)[C@@H](O)[C@H]1O ; method: cytopathic effect ; cells: VERO ; endpoint: EC50 ; value: >400 µg/mL
Nc1ncnc2c1ncn2CC[C@H](O)CCO ; method: cytopathic effect ; cells: VERO ; endpoint: EC50 ; value: >400 µg/mL
CON1CCc2c([nH]c3ccccc23)[C@@H]1[C@@H](N)CSC ; method: cytopathic effect ; cells: VERO ; endpoint: EC50 ; value: >40 µg/mL
O=c1ccn([C@@H]2O[C@H](CO)[C@](O)(C(F)(F)F)[C@H]2O)c(=O)[nH]1 ; method: cytopathic effect ; cells: VERO ; endpoint: EC50 ; value: >400 µg/mL
C=C(N=CC)c1nc(-c2ccc(OC)cc2)n(C2O[C@H](CO)[C@@H](O)[C@H](O)[C@H]2O)n1 ; method: cytopathic effect ; cells: VERO ; endpoint: EC50 ; value: >200 µg/mL
COc1cc2c(cc1OC)[C@@H]1C(N)CSCON1CC2 ; method: cytopathic effect ; cells: VERO ; endpoint: EC50 ; value: 0.7 µg/mL
Cc1nc(C(C)C)c2[nH]c(=S)[nH]c(=O)n12 ; method: cytopathic effect ; cells: VERO ; endpoint: EC50 ; value: >200 µg/mL
C[C@@]1(O)[C@@H](CO)O[C@@H](n2cnc3c(N)ncnc32)[C@@H]1O ; method: cytopathic effect ; cells: VERO ; endpoint: EC50 ; value: >100 µg/mL
CO[C@H](CO)[C@@H](O)CCn1cnc2c(=O)[nH]c(N)nc21 ; method: cytopathic effect ; cells: VERO ; endpoint: EC50 ; value: >400 µg/mL
Cc1ccn2c(CSCCO)cnc2c1 ; method: cytopathic effect ; cells: VERO ; endpoint: EC50 ; value: >100 µg/mL
CC=NC(=N)c1nc(-c2ccc(OC)cc2)n(COCCO)n1 ; method: cytopathic effect ; cells: VERO ; endpoint: EC50 ; value: >10 µg/mL
CC(=O)OCCOCN1C=CC(=O)N(COCCOC(C)=O)S1(=O)=O ; cells: VERO ; endpoint: EC50 ; value: >400 µg/mL
Cc1ccn2c(C3OCCO3)cnc2c1 ; cells: VERO ; endpoint: EC50 ; value: >1000 µM
Nc1ncnc2c1ncn2CCCC(O)CF ; method: cytopathic effect ; cells: VERO ; endpoint: EC50 ; value: >400 µg/mL
Nc1ncnc2c1ncn2[C@@H]1C[C@H](COP(=O)(O)O)[C@@H](O)[C@H]1O ; method: cytopathic effect ; cells: VERO ; endpoint: EC50 ; value: >200 µg/mL
NS(=O)c1ncnc2c1ncn2[C@@H]1O[C@H](CO)[C@@H](O)[C@@H]1O ; method: cytopathic effect ; endpoint: EC50 ; value: >320 µM
CC1=CC(=O)N(c2ccccc2)S(=O)(=O)N1COCCO ; cells: VERO ; endpoint: EC50 ; value: >400 µg/mL
NSc1ncnc2c1ncn2[C@@H]1O[C@H](CO)[C@@H](O)[C@@H]1O ; method: cytopathic effect ; endpoint: EC50 ; value: >320 µM
CC(=O)OC[C@H]1O[C@@H](n2ncc(=S)[nH]c2=S)C(OC(C)=O)C1OC(C)=O ; strain or isolate: Sicilian ; method: cytopathic effect ; cells: VERO ; endpoint: EC50 ; value: 156 µg/mL
CC=NC(=N)c1nc(-c2ccc(OC)cc2)n(C/C=C/c2ccccc2)n1 ; method: cytopathic effect ; cells: VERO ; endpoint: EC50 ; value: >100 µg/mL
Nc1nccc2c1ncn2[C@@H]1CC[C@@H](O)[C@H]1O ; endpoint: MIC ; value: >100 µg/mL
C=C(N=CC)c1nc(-c2cccc(C)c2)n(C2O[C@H](CO)[C@@H](O)[C@H](O)[C@H]2O)n1 ; method: cytopathic effect ; cells: VERO ; endpoint: EC50 ; value: >100 µg/mL
Cc1ccn2c(C3SCCS3)cnc2c1 ; cells: VERO ; endpoint: EC50 ; value: >1000 µM
Nc1nc2c(ncn2[C@H]2CO[C@@H](CO)C2)c(=O)[nH]1 ; method: cytopathic effect ; cells: VERO ; endpoint: EC50 ; value: >400 µg/mL
CC=NC(=N)c1nc(-c2ccccc2)n(C/C=C/c2ccccc2)n1 ; method: cytopathic effect ; cells: VERO ; endpoint: EC50 ; value: >10 µg/mL
Nc1ncnc2c1ncn2C[C@H](O)CO ; method: cytopathic effect ; cells: VERO ; endpoint: EC50 ; value: 150 µg/mL
Nc1ccn([C@@H]2O[C@H](CO)[C@@H](F)[C@H]2O)c(=O)n1 ; method: cytopathic effect ; cells: VERO B ; endpoint: EC50 ; value: >400 µg/mL
Nc1nccc2c1ncn2[C@@H]1C=C(CO)[C@@H](O)[C@H]1O ; endpoint: MIC ; value: >400 µg/mL
O=c1cnn([C@@H]2O[C@H](CO)[C@@H](O)[C@H]2O)c(=O)[nH]1 ; strain or isolate: Sicilian ; method: cytopathic effect ; cells: VERO ; endpoint: EC50 ; value: 0.54 µg/mL
N#Cc1cncc([C@@H]2O[C@H](CO)[C@@H](O)[C@@H]2O)c1 ; method: cytopathic effect ; cells: VERO ; endpoint: EC50 ; value: ≥100 µg/mL
Cc1cn([C@H]2C/C(=N\O)[C@@H](CO)O2)c(=O)[nH]c1=O ; method: cytopathic effect ; cells: VERO ; endpoint: EC50 ; value: >200 µg/mL
CC(=O)OCCOCN1C=CC(=O)NS1(=O)=O ; cells: VERO ; endpoint: EC50 ; value: >400 µg/mL
CC=NC(=N)c1nc(-c2ccc(C)cc2)n(Cc2ccccc2)n1 ; method: cytopathic effect ; cells: VERO ; endpoint: EC50 ; value: >10 µg/mL
OC[C@H]1O[C@@H](c2cncc(Br)c2)[C@@H](O)[C@@H]1O ; method: cytopathic effect ; cells: VERO ; endpoint: EC50 ; value: ≥100 µg/mL
COc1ncnc2c1ncn2[C@@H]1O[C@H](CO)[C@@H](O)[C@@H]1O ; method: cytopathic effect ; endpoint: EC50 ; value: >100 µM
Cc1ccn2c(C3OCCS3)cnc2c1 ; cells: VERO ; endpoint: EC50 ; value: >1000 µM
NC(=O)c1cncc([C@H]2O[C@H](CO)[C@H](O)[C@@H]2O)c1 ; method: cytopathic effect ; cells: VERO ; endpoint: EC50 ; value: ≥100 µg/mL
O=c1cnn([C@@H]2O[C@H](COP(=O)(O)O)[C@@H](O)[C@H]2O)c(=O)[nH]1 ; strain or isolate: Sicilian ; method: cytopathic effect ; cells: VERO ; endpoint: EC50 ; value: 14.7 µg/mL
O=C1C=CN(COCCO)S(=O)(=O)N1COCCO ; cells: VERO ; endpoint: EC50 ; value: >400 µg/mL
NS(=O)(=O)c1ncnc2c1ncn2[C@@H]1O[C@H](CO)[C@@H](O)[C@@H]1O ; method: cytopathic effect ; endpoint: EC50 ; value: >320 µM
NC1CSCCN2CCc3c([nH]c4ccccc34)[C@H]12 ; method: cytopathic effect ; cells: VERO ; endpoint: EC50 ; value: 20 µg/mL
Cc1nc(Cc2ccccc2)c2[nH]c(=S)[nH]c(=O)n12 ; method: cytopathic effect ; cells: VERO ; endpoint: EC50 ; value: >100 µg/mL
C=C(N=CC)c1nc(-c2cccc(C)c2)n([C@@H]2O[C@H](CO)[C@@H](O)[C@H]2O)n1 ; method: cytopathic effect ; cells: VERO ; endpoint: EC50 ; value: >40 µg/mL
COCC1=C[C@@H](n2cnc3c(N)ncnc32)[C@H](O)[C@@H]1O ; method: cytopathic effect ; cells: VERO ; endpoint: EC50 ; value: >400 µg/mL
C[C@H]1O[C@@H](c2n[nH]c(C(N)=O)c2O)[C@H](O)[C@@H]1O ; method: cytopathic effect ; cells: VERO ; endpoint: EC50 ; value: >200 µg/mL
Nc1ncnc2c1ncn2[C@@H]1C=C(CO)[C@@H](O)[C@H]1O ; method: cytopathic effect ; cells: VERO ; endpoint: EC50 ; value: 7 µg/mL
CC(=O)OCCOCN1C(C)=CC(N)=[N+](c2ccccc2)S1(=O)=O ; cells: VERO ; endpoint: EC50 ; value: >400 µg/mL
C=CCc1nc(C)n2c(=O)[nH]c(=S)[nH]c12 ; method: cytopathic effect ; cells: VERO ; endpoint: EC50 ; value: >200 µg/mL
Nc1nccc2c1ncn2[C@@H]1C[C@H](CO)[C@@H](O)[C@H]1O ; endpoint: MIC ; value: >400 µg/mL
OC[C@H]1O[C@@H](c2cncc(Br)c2)[C@@H](O)[C@H]1O ; method: cytopathic effect ; cells: VERO ; endpoint: EC50 ; value: ≥100 µg/mL
Nc1ccn([C@@H]2C[C@H](CO)[C@@H](O)[C@H]2O)c(=O)n1 ; method: cytopathic effect ; cells: VERO ; endpoint: EC50 ; value: 3 µg/mL
Nc1ccn(C(CF)CCCO)c(=O)n1 ; method: cytopathic effect ; cells: VERO ; endpoint: EC50 ; value: >400 µg/mL
N=C(N)c1ncn([C@@H]2O[C@H](CO)[C@@H](O)[C@H]2O)n1 ; endpoint: EC50 ; value: >100 µM
C=CC1=C[C@@H](n2cnc3c(N)ncnc32)[C@H](O)[C@@H]1O ; method: cytopathic effect ; cells: VERO ; endpoint: EC50 ; value: >200 µg/mL
Nc1nc(Cl)c2ncn([C@H]3CO[C@@H](CO)C3)c2n1 ; method: cytopathic effect ; cells: VERO ; endpoint: EC50 ; value: >400 µg/mL

A second listing of 7 rows from above:

structure | strain or isolate | method | cells | endpoint | value
Cc1cn([C@H]2O[C@H](CO)[C@@H](N=[N+]=[N-])[C@H]2F)c(=O)nc1N | - | cytopathic effect | VERO B | EC50 | >400 µg/mL
Nc1nccc2c1ncn2[C@@H]1CC[C@@H](O)[C@H]1O | - | - | - | MIC | >100 µg/mL
CC1=CC(=O)N(c2ccccc2)S(=O)(=O)N1COCCO | - | - | VERO | EC50 | >400 µg/mL
Nc1nc2c(ncn2[C@H]2CO[C@@H](CO)C2)c(=O)[nH]1 | - | cytopathic effect | VERO | EC50 | >400 µg/mL
CC=NC(=N)c1nc(-c2ccccc2)n(C/C=C/c2ccccc2)n1 | - | cytopathic effect | VERO | EC50 | >10 µg/mL
COc1ncnc2c1ncn2[C@@H]1O[C@H](CO)[C@@H](O)[C@@H]1O | - | cytopathic effect | - | EC50 | >100 µM
C[C@H]1O[C@@H](c2n[nH]c(C(N)=O)c2O)[C@H](O)[C@@H]1O | - | cytopathic effect | VERO | EC50 | >200 µg/mL

An empty or dashed field is not shown. ECn is the concentration giving n% inhibition of infection, replication or growth.